Common to all, as to assay type: cell-based
The test system of data set [1] is Salmonella enterica serovar Enteritidis (human clinical isolate). The conditions noted are these: column headed Salmonella Enteritidis; ratio of the toxicity to the MIC; range; N/O = no observed antimicrobial activity. The method, then: (§1) Bacteria were grown overnight at 37 °C in Mueller-Hinton Broth (MHB; Sigma-Aldrich, St. Louis. MO, USA) in a shaking incubator and aliquoted into cryovials with a 50% glycerol solution in a 1:1 ratio. No additives were added to the MHB during the growth of bacterial isolates. Glycerol stocks were stored at −80 °C.
(§2) The antimicrobial activity of the putative AMPs was determined by a broth microdilution assay as described by the Clinical and Laboratory Standards Institute, with the published adaptations for testing of cationic peptides. Escherichia coli 25922 and Staphylococcus aureus 29213 isolates were purchased from the American Type Culture Collection (ATCC; Manassas, VA, USA). A human clinical isolate of Salmonella enterica serovar Enteritidis was provided by the BC Centre for Disease Control. Bacteria from stocks stored at −80 °C were streaked onto nonselective Columbia blood agar with 5% sheep blood (Oxoid) and incubated overnight at 37 °C. Next, 2–4 colonies were streaked onto a new agar plate to ensure uniform health of colonies used in the broth microdilution assay. Isolated colonies were suspended in MHB and the optical density was measured with a spectrophotometer to create an initial inoculum concentration of approximately 1 × 10^8 cfu/mL. The inoculum was diluted 1:250 to a final concentration of 2–8 × 10^5 cfu/mL, which was confirmed by performing a Total Viability Count (TVC). The TVC consisted of plating a 1:1000 dilution of the final inoculum on nonselective media and was also used to confirm the health and purity of the inoculum in each trial.
(§3) Lyophilized 80 µg peptide aliquots synthesized by GenScript (Piscataway, NJ, USA) were resuspended to 1.28 mg/mL with UltraPure water (Thermo Fisher Scientific, Waltham, MA, USA) and serially diluted in polypropylene 96-well microtiter plates (Greiner Bio-One #650261, Kremsmünster, Austria) from 128 down to 0.5 µg/mL. Two columns per plate were reserved for growth and sterility controls. Inoculum was added to the wells containing the peptide and the growth control. Plates were incubated for 20–24 h at 37 °C. The minimum inhibitory concentration (MIC) was determined as the lowest peptide concentration where there was no visible bacterial growth.

For data set [2], the system named is Staphylococcus aureus ATCC 29213. The conditions noted are these: column headed S. aureus ATCC 29213; ratio of the toxicity to the MIC; range; N/O = no observed antimicrobial activity. The method, then: as §1, §2, §3
For data set [3], the system named is Escherichia coli ATCC 25922. To be noted: ratio of the toxicity to the MIC; range; N/O = no observed antimicrobial activity. The method, then: as §1, §2, §3

Residues, ends and D or L forms follow the SMILES beside them. No end group written: not given here.

With `CC[C@H](C)[C@H](NC(=O)[C@H](CCCCN)NC(=O)[C@H](CS)NC(=O)[C@H](Cc1ccccc1)NC(=O)[C@H](CCCCN)NC(=O)[C@H](CCCNC(=N)N)NC(=O)[C@H](CO)NC(=O)[C@H](Cc1ccc(O)cc1)NC(=O)CNC(=O)[C@H](CS)NC(=O)[C@@H]1CCCN1C(=O)[C@H](C)NC(=O)[C@@H](NC(=O)[C@H](C)NC(=O)[C@H](Cc1ccccc1)NC(=O)[C@H](Cc1ccccc1)NC(=O)[C@H](Cc1ccccc1)NC(=O)[C@H](CCCNC(=N)N)NC(=O)[C@@H](N)CCCNC(=N)N)[C@@H](C)O)C(=O)N[C@H](C(=O)N[C@@H](CCCNC(=N)N)C(=O)N[C@@H](CCCNC(=N)N)C(=O)N[C@@H](CCCCN)C(=O)N[C@@H](CCCNC(=N)N)C(=O)O)[C@@H](C)O` [CaCa4] (H-RRFFFATAPCGYSRKFCKITRRKR-OH), the “Selectivity Index, Salmonella Enteritidis” value in data set [1] is given as “N/O”.

For the molecule `CC[C@H](C)[C@H](NC(=O)CNC(=O)[C@H](CO)NC(=O)[C@@H](NC(=O)[C@H](CC(C)C)NC(=O)CN)[C@@H](C)CC)C(=O)N[C@@H](CC(C)C)C(=O)NCC(=O)N[C@@H](C)C(=O)NCC(=O)N[C@@H](CCCCN)C(=O)N[C@@H](CCCCN)C(=O)N[C@H](C(=O)N[C@@H](CC(C)C)C(=O)N[C@@H](CS)C(=O)NCC(=O)N[C@@H](CC(C)C)C(=O)N[C@@H](CO)C(=O)NCC(=O)N[C@@H](CC(C)C)C(=O)N[C@@H](CS)C(=O)O)C(C)C` [OdMa10] (H-GLISGILGAGKKVLCGLSGLC-OH; N-terminus and C-terminus assumed), the “Selectivity Index, S. aureus ATCC 29213” value in data set [2] was “N/O”.

`CC[C@H](C)[C@H](NC(=O)CN)C(=O)N[C@@H](Cc1ccccc1)C(=O)NCC(=O)NCC(=O)N[C@@H](Cc1c[nH]cn1)C(=O)N[C@@H](CC(C)C)C(=O)N[C@@H](CCCCN)C(=O)N[C@H](C(=O)NCC(=O)N[C@@H](CCCCN)C(=O)N[C@@H](CCCCN)C(=O)N[C@H](C(=O)N[C@@H](C)C(=O)N[C@@H](CS)C(=O)NCC(=O)N[C@@H](CC(C)C)C(=O)N[C@@H](CO)C(=O)NCC(=O)N[C@@H](CC(C)C)C(=O)N[C@@H](CS)C(=O)O)[C@@H](C)CC)C(C)C` [OdTo2] (H-GIFGGHLKVGKKIACGLSGLC-OH; N-terminus and C-terminus assumed): in data set [1], the “Selectivity Index, Salmonella Enteritidis” value is recorded as “N/O”. Further, the “Selectivity Index, S. aureus ATCC 29213” value in data set [2] is recorded as “N/O”.

With `CC(C)C[C@H](NC(=O)CN)C(=O)N[C@@H](CC(C)C)C(=O)NCC(=O)N[C@@H](CCCCN)C(=O)N[C@H](C(=O)N[C@@H](CC(C)C)C(=O)NCC(=O)N[C@H](C(=O)NCC(=O)N[C@@H](CCCCN)C(=O)N[C@@H](CCCCN)C(=O)N[C@H](C(=O)N[C@@H](CC(C)C)C(=O)N[C@@H](CS)C(=O)NCC(=O)N[C@H](C(=O)N[C@H](C(=O)NCC(=O)N[C@@H](CCCNC(=N)N)C(=O)N[C@@H](CCC(=O)O)C(=O)N[C@@H](CCCNC(=N)N)C(=O)N[C@@H](CS)C(=O)N[C@@H](CCC(N)=O)C(=O)O)[C@@H](C)O)C(C)C)C(C)C)C(C)C)C(C)C` [PeNi5] (H-GLLGKVLGVGKKVLCGVTGRERCQ-OH; N-terminus and C-terminus assumed), the “Selectivity Index, Salmonella Enteritidis” value in data set [1] is recorded as “N/O”.

Consider `CC[C@H](C)[C@H](NC(=O)[C@@H](N)C(C)C)C(=O)N1CCC[C@H]1C(=O)N[C@@H](Cc1ccccc1)C(=O)N[C@H](C(=O)N[C@@H](C)C(=O)N[C@@H](CO)C(=O)N[C@H](C(=O)N[C@@H](C)C(=O)N[C@@H](C)C(=O)N[C@@H](CCC(=O)O)C(=O)N[C@@H](CCSC)C(=O)N[C@@H](CCSC)C(=O)N[C@@H](Cc1c[nH]cn1)C(=O)N[C@@H](Cc1c[nH]cn1)C(=O)N[C@H](C(=O)N[C@@H](Cc1ccc(O)cc1)C(=O)N[C@@H](CS)C(=O)N[C@@H](C)C(=O)N[C@@H](C)C(=O)N[C@@H](CO)C(=O)N[C@@H](CCCCN)C(=O)N[C@@H](CCCNC(=N)N)C(=O)N[C@@H](CS)C(=O)N[C@@H](CCCCN)C(=O)N[C@@H](CC(N)=O)C(=O)O)C(C)C)C(C)C)C(C)C` [PeNi7] (H-VIPFVASVAAEMMHHVYCAASKRCKN-OH; N-terminus and C-terminus assumed), for which, in data set [1], the “Selectivity Index, Salmonella Enteritidis” value is reported as “N/O”. Besides, the “Selectivity Index, S. aureus ATCC 29213” value in data set [2] is “N/O”.

For `CC[C@H](C)[C@H](NC(=O)[C@H](CO)NC(=O)[C@@H]1CCCN1C(=O)[C@H](CC(C)C)NC(=O)[C@@H](NC(=O)[C@H](CCCCN)NC(=O)[C@H](C)NC(=O)[C@H](C)NC(=O)[C@H](CC(C)C)NC(=O)CNC(=O)[C@H](C)NC(=O)[C@@H](NC(=O)[C@@H](NC(=O)[C@@H]1CCCN1C(=O)[C@H](CC(C)C)NC(=O)[C@@H](N)Cc1ccccc1)C(C)C)C(C)C)C(C)C)C(=O)N[C@H](C(=O)N[C@@H](CS)C(=O)N[C@@H](C)C(=O)N[C@H](C(=O)N[C@H](C(=O)N[C@@H](CCCCN)C(=O)N[C@@H](CCCCN)C(=O)N[C@@H](CS)C(=O)O)[C@@H](C)O)C(C)C)[C@@H](C)CC` [RaCa15] (H-FLPVVAGLAAKVLPSIICAVTKKC-OH; N-terminus and C-terminus assumed), the “Selectivity Index, S. aureus ATCC 29213” value in data set [2] was “N/O”.

On to `CC[C@H](C)[C@H](NC(=O)[C@H](CO)NC(=O)[C@@H]1CCCN1C(=O)[C@H](CC(C)C)NC(=O)[C@@H](NC(=O)[C@H](CCCCN)NC(=O)[C@H](C)NC(=O)[C@H](C)NC(=O)[C@H](CC(C)C)NC(=O)CNC(=O)[C@H](C)NC(=O)[C@@H](NC(=O)[C@@H](NC(=O)[C@@H]1CCCN1C(=O)[C@H](CC(C)C)NC(=O)[C@H](Cc1ccccc1)NC(=O)[C@H](CCCNC(=N)N)NC(=O)[C@H](CCC(N)=O)NC(=O)[C@H](CCC(=O)O)NC(=O)[C@@H](N)CCC(=O)O)C(C)C)C(C)C)C(C)C)C(=O)N[C@H](C(=O)N[C@@H](CS)C(=O)N[C@@H](C)C(=O)N[C@H](C(=O)N[C@H](C(=O)N[C@@H](CCCCN)C(=O)N[C@@H](CCCCN)C(=O)N[C@@H](CS)C(=O)O)[C@@H](C)O)C(C)C)[C@@H](C)CC` [RaSy2] (H-EEQRFLPVVAGLAAKVLPSIICAVTKKC-OH; N-terminus and C-terminus assumed), for which the “Selectivity Index, S. aureus ATCC 29213” value in data set [2] was “N/O”.

For “AFVRILCYCCPRRIKRR [TeRu2, rAMPage-discovered AMP, Temnothorax rugatulus]”, the “Selectivity Index, Salmonella Enteritidis” value in data set [1] is “N/O”. The “Selectivity Index, S. aureus ATCC 29213” value in data set [2] was “N/O”.

Consider “GFMDTAKNVAKNVAVTLLDNLKCKITKAC [OdMa13, rAMPage-discovered AMP, Odorrana margaretae]”, for which, in data set [1], the “Selectivity Index, Salmonella Enteritidis” value was “N/O”. The “Selectivity Index, S. aureus ATCC 29213” value in data set [2] is “N/O”.

As to “GIFGGLLKEGKKIACGLSGLC [OdTo3, rAMPage-discovered AMP, Odorrana tormota]”, in data set [1], the “Selectivity Index, Salmonella Enteritidis” value is recorded as “N/O”. The “Selectivity Index, S. aureus ATCC 29213” value in data set [2] was “N/O”.

Consider GILRLVTRRFRFSPTNLNRYTVARLVSGVP [BoAr6], for which the “Selectivity Index, S. aureus ATCC 29213” value in data set [2] is recorded as over 2.

With GILRSLGWIQMPRSRRRHR [AnFl2], the “Selectivity Index, S. aureus ATCC 29213” value in data set [2] is over 1.

GILSGLLGAGKKIVC [OdMa4]: the “Selectivity Index, Salmonella Enteritidis” value in data set [1] is recorded as “N/O”.

For “GILSGLLGAGKKIVCGLSGMC [RaOm2, rAMPage-discovered AMP, Rana omeimontis]”, in data set [1], the “Selectivity Index, Salmonella Enteritidis” value is “N/O”. Also, in data set [2], the “Selectivity Index, S. aureus ATCC 29213” value was “N/O”.

As to GLISGILGAGKKVLC [OdMa9], the “Selectivity Index, Salmonella Enteritidis” value in data set [1] was “N/O”.

As for GLVGKLVKGGLKLIGHVANG [RaSi1], the “Selectivity Index, S. aureus ATCC 29213” value in data set [2] is reported as “N/O”.

Turning to ISIKEALEHSFFHTVPRKWCKKH [PoSn1], the “Selectivity Index, Salmonella Enteritidis” value in data set [1] was “N/O”. In addition, in data set [2], the “Selectivity Index, S. aureus ATCC 29213” value is “N/O”.

In the case of RKIIAVSVHKLCRVKR [BoUs1], the “Selectivity Index, S. aureus ATCC 29213” value in data set [2] was over 2.

Turning to RRAIFASIRGYLGLRKR [MyGu1], the “Selectivity Index, Salmonella Enteritidis” value in data set [1] was over 1.

SWLSKSVKKLVNKKNYTRLEKLAKKKLFNE [TeRu4]: the “Selectivity Index, E. coli ATCC 25922” value in data set [3] is over 128.

For the molecule “TALKSLSILKKLAKLNM [PoSn2, rAMPage-discovered AMP, Polistes snelleni]”, the “Selectivity Index, Salmonella Enteritidis” value in data set [1] is recorded as “N/O”. In addition, the “Selectivity Index, S. aureus ATCC 29213” value in data set [2] is recorded as “N/O”.

(Values after publication PMC9774241, “Associating Biological Activity and Predicted Structure of Antimicrobial Peptides from Amphibians and Insects” (Antibiotics, 2022).)
